# Data as given in patent publication US9505775B2, “Inhibitors of cytomegalovirus” (Boehringer Ingelheim International GmbH, priority 2012, dated 2016).
# Sequences of proteins named here, by UniProt entry; tags and fusion partners are left off.
# UniProt P08546, whole entry: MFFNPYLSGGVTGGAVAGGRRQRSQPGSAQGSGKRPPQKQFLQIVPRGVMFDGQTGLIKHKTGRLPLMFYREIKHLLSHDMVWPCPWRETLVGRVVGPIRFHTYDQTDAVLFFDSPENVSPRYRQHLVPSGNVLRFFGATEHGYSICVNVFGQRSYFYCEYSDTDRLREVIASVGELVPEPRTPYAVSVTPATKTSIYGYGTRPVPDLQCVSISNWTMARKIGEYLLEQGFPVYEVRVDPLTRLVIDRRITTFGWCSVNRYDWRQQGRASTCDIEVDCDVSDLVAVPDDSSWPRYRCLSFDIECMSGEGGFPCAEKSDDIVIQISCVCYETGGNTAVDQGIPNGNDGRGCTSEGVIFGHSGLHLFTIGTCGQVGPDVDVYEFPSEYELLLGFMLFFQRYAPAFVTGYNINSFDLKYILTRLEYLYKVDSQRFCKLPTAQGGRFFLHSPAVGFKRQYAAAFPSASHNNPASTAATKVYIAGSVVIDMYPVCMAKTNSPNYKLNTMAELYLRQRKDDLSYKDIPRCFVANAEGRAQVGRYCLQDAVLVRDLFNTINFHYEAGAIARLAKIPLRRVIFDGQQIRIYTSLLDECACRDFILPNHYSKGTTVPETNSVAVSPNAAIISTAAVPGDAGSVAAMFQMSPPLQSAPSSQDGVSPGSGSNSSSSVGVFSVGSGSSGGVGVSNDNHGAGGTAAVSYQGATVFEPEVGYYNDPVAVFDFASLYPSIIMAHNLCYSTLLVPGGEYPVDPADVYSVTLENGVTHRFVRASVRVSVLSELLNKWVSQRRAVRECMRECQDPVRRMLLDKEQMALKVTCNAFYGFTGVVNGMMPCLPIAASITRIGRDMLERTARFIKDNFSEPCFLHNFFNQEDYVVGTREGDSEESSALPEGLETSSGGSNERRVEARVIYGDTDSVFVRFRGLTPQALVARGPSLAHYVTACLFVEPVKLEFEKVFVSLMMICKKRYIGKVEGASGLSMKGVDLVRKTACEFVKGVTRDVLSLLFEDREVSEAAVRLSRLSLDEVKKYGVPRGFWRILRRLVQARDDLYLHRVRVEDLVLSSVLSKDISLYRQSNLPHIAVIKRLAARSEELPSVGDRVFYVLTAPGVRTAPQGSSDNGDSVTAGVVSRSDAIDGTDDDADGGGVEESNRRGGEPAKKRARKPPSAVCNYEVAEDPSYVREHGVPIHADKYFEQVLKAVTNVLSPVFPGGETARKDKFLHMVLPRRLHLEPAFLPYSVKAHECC
# Biological target: purified recombinant HCMV polymerase from strain AD169 (UL54) (Human cytomegalovirus, UniProt P08546)
# Experiment: HCMV Polymerase LANCE TR-FRET Assay
# Assay type: biochemical
# Settings: read-out: IC50 (nM) Example B; 2 nM GST-UL54, 37° C. for 30 min
smiles,measurement,value
Cn1cnc(CCc2cc3c(cc2Cl)N(C(=O)[C@H]2CC(=O)N(c4cccc(C#N)c4)C2)CC3(C)C)c1,IC50,350 nM
